This is an account of results in patent US6974574B2, “Methods of inducing an HIV specific response using a Vpr-specific epitope” (The General Hospital Corporation, priority 2001, dated 2005).

For this experiment, the system named is PBMC (CD8+ T cells) of HIV-1 infected individuals. The experiment is described as follows: IFN-γ Elispot assay with PBMC and synthetic HIV-1 peptides. The class given is cell-based, human. Particulars: AL9: HLA-A2; FL9: HLA-B7. As for the experimental part:
PBMC were plated on 96-well polyvinylidene difluoride-backed plates (MAIP S45, Millipore, Bedford, Mass.) that had been previously coated with 100 μl of an anti-IFN-γ mAB 1-D1k (0.5 μg/ml, Mabtech, Stockholm, Sweden) overnight at 4° C. Peptides were added directly to the wells at a final concentration of 1×10^−5 molar. Cells were added to the wells at 50,000 to 100,000 cells per well. The plates were incubated at 37° C., 5% CO2 overnight (14-16 h) and then processed as described. IFN-γ producing cells were counted by direct visualization and are expressed as spot forming cells (SFC) per 10^6 cells. The number of specific IFN-γ secreting T-cells was calculated by subtracting the negative control value from the established SFC count. The negative controls were always <20 SFC per 10^6 input cells. Responses ≧40 SFC per 10^6 input cells above background were considered positive. The positive control consisted of incubation of 100,000 PBMC with phytohaemagglutinin (PHA). CD8+ T cell dependence of all responses to synthetic peptides was confirmed by loss of IFN-γ production after CD8+ T cell depletion using magnetic beads (MACS, Miltenyi Biotech, Germany), according to the manufacturer's protocol. Fine mapping of epitopes by Elispot assay was performed, using peptide truncations (e.g., as described in Altfield et al., 2000, J. Virol. 74:8541). […]

Turning to “AIIRILQQL (Human immunodeficiency virus type 1) [AL9]”, the “individuals expressing the HLA allele that targeted the epitope” value was 6/18.
